Compound potency records, mixed from different reports. Data source: NIAID ChemDB in PubChem.

Common to all: whole-cell or culture tests; agent: Mycobacterium tuberculosis

Neighbouring rows are from separate reports. MIC bound comes from a single tested concentration. Percent inhibition refers to the dose given; in toxicity tests it is the harm to the cells. ECn is the concentration giving n% inhibition of infection, replication or growth. Blank or dashed fields: not listed here.

compound,dose,strain,endpoint,changes,cell line,method,result
Clc1ccc(CNc2ccc(-n3ccnc3)cc2)cc1,,103471,MIC,,,,4 µg/mL
COc1ccc(CNCCNCC(c2ccccc2)c2ccccc2)c(OC)c1,,,MIC,,,,25 µM
C[C@H](c1ccccc1)N1C/C(=C\c2cccc3ccccc23)[C@@]2(ON=C(c3ccc(Cl)cc3)O2)[C@@]2(C1)ON=C(c1ccc(Cl)cc1)[C@@H]2c1cccc2ccccc12,,MDR-TB,MIC,,,,0.99 µM
O=c1[nH]c2c([N+](=O)[O-])cccc2c(O)c1N=Nc1ccc(Cl)c(Cl)c1,6.25 µg/mL,H37Rv,inhibition,,,resazurin,79%
O=C(/C=C/c1ccccc1)c1cccc(I)c1O,,H37Rv,EC50,,,,>12.5 µg/mL
O=c1[nH]c2cc([N+](=O)[O-])ccc2c(O)c1N=Nc1ccc(Cl)c(F)c1,6.25 µg/mL,H37Rv,inhibition,,,resazurin,70%
CN1C(C(=O)Nc2nccs2)=C(O)c2ccccc2S1(=O)=O,,H37Rv,MIC bound,,,resazurin,>6.25 µg/mL
CC(=O)Nc1cccc(/C=C/C(=O)c2ccccc2O)c1,,H37Rv,EC50,,,,>12.5 µg/mL
CC(C)(C)OCOC(=O)c1cnccn1,,KK11-20,MBC,,,,25 µg/mL
Cc1ccc([C@H]2C(c3ccccc3)=NO[C@@]23CN([C@H](C)c2ccccc2)C/C(=C\c2cccc(C)c2)[C@@]32ON=C(c3ccccc3)O2)cc1,,MDR-TB,MIC,,,,2.42 µM
c1ccc(C(NCCNCc2ccc3c(c2)OCO3)c2ccccc2)cc1,,,MIC,,,,50 µM
CCCCc1nc(Cl)c(/C=N/NC(N)=S)n1CCCN1CCN(c2ccccc2OC)CC1,,H37Rv,MIC,,,agar,3.13 µg/mL
Cc1ccc(S(=O)(=O)N/N=C/c2oc(-c3ccncc3)c(-c3ccncc3)c2[N+](=O)[O-])cc1,,H37Rv,MIC bound,,,BACTEC,>12.5 µg/mL
CC1N=C(N)NC(c2ccc([N+](=O)[O-])cc2)=C1C(=O)Nc1ccc(S(=O)(=O)c2ccc(NC(=O)C3=C(c4ccc([N+](=O)[O-])cc4)NC(N)=NC3C)cc2)cc1,,H37Rv,MIC,,,,0.46 µM
CCC(CO)NCCNCC(c1ccccc1)c1ccccc1,,,MIC,,,,9.4 µM
COc1cc(/C=C(\NC(=O)c2ccccc2)c2nc3ccc4c(c3[nH]2)C(=O)c2ccccc2C4=O)cc(OC)c1OC,,H37Rv,MIC bound,,,resazurin,>6.25 µg/mL
CO[C@H]1/C=C/O[C@@]2(C)Oc3c(C)c(O)c4c(O)c(c(/C=N/N5CCN(C)CC5)c(O)c4c3C2=O)NC(=O)/C(C)=C\C=C\[C@H](C)[C@H](O)[C@@H](C)[C@@H](O)[C@@H](C)[C@H](OC(C)=O)[C@@H]1C,,R37RV,MIC,,,,0.016 µg/mL
CC1(C)[C@H]2CC[C@@H](CNCCNCCc3ccccc3Cl)[C@@H]1C2,,,MIC,,,,50 µM
O=C1c2ccccc2C(=O)c2sc(Nc3ccc(Cl)cc3)nc21,,H37Rv,MIC,,,BACTEC,0.8 µg/mL
COc1ccc(N=Nc2c(O)c3c(ccc4ccccc43)oc2=O)cc1,6.25 µg/mL,H37Rv,inhibition,,,resazurin,55%
O=C1c2ccccc2C(=O)N1C1Cc2nc3ccccc3n2C1=O,,H37Rv,MIC bound,,,BACTEC,>12.8 µg/mL
CCc1cc(C(N)=S)ccn1,,H37Rv,MIC,,,,0.25 µg/mL
CC(=O)c1c(O)c(C)c(O)c2c1OC1=CC(=O)c3c(C)noc3C12C,,H37Rv,MIC bound,,,BACTEC,>12.5 µg/mL
C[C@H](c1ccccc1)N1C[C@@]2(ON=C(c3ccc(Cl)cc3)[C@H]2c2ccc(Cl)cc2Cl)C2(ON=C(c3ccc(Cl)cc3)O2)[C@]2(C1)ON=C(c1ccc(Cl)cc1)[C@H]2c1ccc(Cl)cc1Cl,,H37Rv,MIC,,,,0.8 µM
Cc1ccc(NC(=O)Oc2cc(C)c(Br)c(C)c2)cc1Cl,,H37Rv,MIC bound,,,BACTEC,>12.5 µg/mL
Cc1ccc(-c2cnnc(N3CCC(c4ccccc4)C3)n2)o1,,H37Rv,MIC,,,,54.7 µM
O=c1c2ccccc2nc(-c2ccccc2Cl)n1-c1nnc(C(F)(F)F)s1,12.5 µg/mL,H37Rv,inhibition,,,BACTEC,26%
COc1ccc(C2Oc3ccccc3C(=O)C2O)cc1,12.5 µg/mL,H37Rv,inhibition,,,,48%
CC(C)[C@H]1C(=O)OC[C@@H](NC(=O)c2cnc3ccccc3n2)C(=O)N[C@@H](C)C(=O)N(C)[C@@H]2CSSC[C@H](C(=O)N1C)N(C)C(=O)[C@H](C)NC(=O)[C@H](NC(=O)c1cnc3ccccc3n1)COC(=O)[C@H](C(C)C)N(C)C2=O,,H37Rv,MIC,,VERO,,1.6 µg/mL
Cc1cccc(N=Nc2c(O)c3c(ccc4ccccc43)oc2=O)c1C,,H37Rv,MIC,,,resazurin,<6.25 µg/mL
C[C@H](c1ccccc1)N1C/C(=C\c2ccc(Cl)cc2)[C@@]2(ON=C(c3ccc(Cl)cc3)O2)[C@@]2(C1)ON=C(c1ccc(Cl)cc1)[C@@H]2c1ccc(Cl)cc1,,MDR-TB,MIC,,,,1.03 µM
N#CC1CN(Cc2ccccc2)C(=O)C1=O,6.25 µg/mL,H37Rv,inhibition,,,resazurin,3%
O=C1CC(c2ccccc2)Oc2ccc(I)cc21,12.5 µg/mL,,inhibition,,,,0%
CC1N=C(N)NC(c2ccco2)=C1C(=O)Nc1ccc(S(=O)(=O)c2ccc(NC(=O)C3=C(c4ccco4)NC(N)=NC3C)cc2)cc1,,INH resistant,MIC,,,,5.38 µM
CC(C)c1ccc(C2=NO[C@]3(O2)/C(=C/c2ccc(Cl)cc2Cl)CN([C@H](C)c2ccccc2)C[C@@]32ON=C(c3ccc(C(C)C)cc3)[C@@H]2c2ccc(Cl)cc2Cl)cc1,,H37Rv,MIC,,,,14.89 µM
CO[C@H]1/C=C/O[C@@]2(C)Oc3c(C)c(O)c4c(O)c(c(/C=N/N5CCN(C)CC5)c(O)c4c3C2=O)NC(=O)/C(C)=C\C=C\[C@H](C)[C@H](O)[C@@H](C)[C@@H](O)[C@@H](C)[C@H](OC(C)=O)[C@@H]1C,,TN1916,MIC,,,,>32 µg/mL
COC(=O)C1[C@@H](OC(=O)CC(CCCCCCCCCCC(C)C)OC(=O)CC(C)CC(=O)OC2OC(C)C(OC)C(OC)C2OC)CN(C)C([C@@H](OC2O[C@H](CN)[C@@H](O)[C@H]2O)C2OC(n3ccc(=O)[nH]c3=O)[C@H](O)[C@@H]2O)C(=O)N1C,,Ravenel,MIC,,,,6.25 µg/mL
O=C(CNc1cccc(Cl)c1)Nn1c(-c2ccccc2)nc2ccccc2c1=O,,H37Rv,MIC bound,,,BACTEC,>12.5 µg/mL
CC[C@@H](CO)NCCN[C@@H](CC)CO,,Beijing,MIC,,,broth dilution,8 µg/mL
CC1N=C(N)NC(c2c(Cl)cccc2Cl)=C1C(=O)Nc1ccc(S(=O)(=O)c2ccc(NC(=O)C3=C(c4c(Cl)cccc4Cl)NC(N)=NC3C)cc2)cc1,,INH resistant,MIC,,,,1.96 µM
CSC(=S)NN,,H37Rv,MIC bound,,,BACTEC,≤128 µg/mL
O=c1[nH]c2c([N+](=O)[O-])cccc2c(O)c1N=Nc1cccc(Cl)c1,,H37Rv,MIC,,,resazurin,<6.25 µg/mL
CCCCc1nc(Cl)c(/C=N/NC(N)=S)n1CCCN1CCN(Cc2ccc3c(c2)OCO3)CC1,,H37Rv,MIC,,,agar,12.5 µg/mL
O=C(/C=C/c1cc2ccccc2c2ccccc12)c1cccc(O)c1,,,EC50,,,,<12.5 µg/mL
NC(N)=Nc1nc2ccccc2[nH]1,,H37Rv,MIC bound,,,BACTEC,>6.25 µg/mL
CC[C@H]1OC(=O)[C@H](C)[C@@H](O[C@H]2C[C@@](C)(OC)[C@@H](O)[C@H](C)O2)[C@H](C)[C@@H](O[C@@H]2O[C@H](C)C[C@H](N(C)C)[C@H]2O)[C@](C)(OC)C[C@@H](C)C(=O)[C@H](C)[C@@H](O)[C@]1(C)O,,H37Rv,MIC,,,,8 µg/mL
CCCCC(CC)CN1CN(CC(CC)CCCC)CC(C)(NCCNCCc2cccc(F)c2)C1,,,MIC,,,,12.5 µM
CC(C)Cc1cnc(CC(C)C)c(=O)[nH]1,,H37Rv,MIC bound,,,BACTEC,>12.5 µg/mL
O=C(C/C=C/c1ccccc1)Nc1ccccc1N1CCSCC1,,103471,MIC,,,,>16 µg/mL
CCCCc1nc(Cl)c(/C=N/NC(N)=S)n1CCCN1CCN(C(c2ccccc2)c2ccc(Cl)cc2)CC1,,H37Rv,MIC,,,agar,50 µg/mL
CC(C)N=c1cc2n(-c3ccc(Cl)cc3)c3ccccc3nc-2cc1Nc1ccc(Cl)cc1,,90-0145 (drug-susceptible),MIC,,,,0.2 µg/mL
COc1cc2c(cc1O)C(=O)c1[nH]c3ccccc3c1CC2,6.25 µg/mL,H37Rv,inhibition,,,resazurin,29%
CN1CCN(c2ccc(NCc3ccc(-c4ccccc4)cc3)cc2)CC1,,103471,MIC,,,,4 µg/mL
C[C@H](c1ccccc1)N1C/C(=C\c2ccc(Cl)cc2Cl)[C@@]2(ON=C(c3ccc(Cl)cc3)O2)[C@@]2(C1)ON=C(c1ccc(Cl)cc1)[C@@H]2c1ccc(Cl)cc1Cl,,MDR-TB,MIC,,,,0.48 µM
CC1COc2c(N3CCN(C)CC3)c(F)cc3c(=O)c(C(=O)O)cn1c23,,STR-resistant (ATCC 35820),MIC,,,broth dilution,0.5 µg/mL
CC1N=C(N)NC(c2cccs2)=C1C(=O)Nc1ccc(S(=O)(=O)c2ccc(NC(=O)C3=C(c4cccs4)NC(N)=NC3C)cc2)cc1,,H37Rv,MIC,,,,0.68 µM
CO[C@H]1/C=C/O[C@@]2(C)Oc3c(C)c(O)c4c(O)c(c(/C=N/N5CCN(C)CC5)c(O)c4c3C2=O)NC(=O)/C(C)=C\C=C\[C@H](C)[C@H](O)[C@@H](C)[C@@H](O)[C@@H](C)[C@H](OC(C)=O)[C@@H]1C,,90-0145 (drug-susceptible),MIC,,,,0.4 µg/mL
O=c1oc2ccc(-c3ccccc3)cc2c(O)c1N=Nc1ccccc1[N+](=O)[O-],6.25 µg/mL,H37Rv,inhibition,,,resazurin,25%
Nc1cc(C(=O)Nc2ccc(C3=NCCN3)cc2)cc(C(=O)Nc2ccc(C3=NCCN3)cc2)c1,12.5 µg/mL,H37Rv,inhibition,,,BACTEC,-34%
CN[C@@H]1[C@H](O[C@H]2[C@H](O[C@H]3[C@H](O)[C@@H](O)[C@H](N=C(N)N)[C@@H](O)[C@@H]3N=C(N)N)O[C@@H](C)[C@]2(O)C=O)O[C@@H](CO)[C@H](O)[C@H]1O,,90-0233 (INH SM-RS),MIC,,,,16 µg/mL
Cc1ccc(Nc2nc(C)c(C(/C=C/c3ccc4c(c3)OCO4)=N/Nc3ccc([N+](=O)[O-])cc3[N+](=O)[O-])s2)c([N+](=O)[O-])c1,6.25 µg/mL,H37Rv,inhibition,,,resazurin,-95%
OCNC(=S)c1cnccn1,,KK11-20,MIC,,,,25 µg/mL
CCCCc1nc(Cl)c(/C=N/NC(N)=S)n1CCCN1CCN(Cc2ccccc2)CC1,,H37Rv,MIC,,,agar,50 µg/mL
O=C(C/C=C/c1ccccc1)Nc1cccc(N2CCSCC2)c1,,103471,MIC,,,,8 µg/mL
O=C([C@@H](O)CO)N1CC=C(c2c(F)cc(N3C[C@H](COc4ccon4)OC3=O)cc2F)CC1,,AZD5847-resistant 4.6,MIC,T460C Cys154Arg,,,16 µg/mL
C=CCNCCNCCC(c1ccccc1)c1ccccc1,,,MIC,,,,50 µM
C[C@H](c1ccccc1)N1C/C(=C/c2ccccc2Br)[C@]2(ON=C(c3ccc(Cl)cc3)O2)C2(C1)ON=C(c1ccc(Cl)cc1)[C@H]2c1ccccc1Br,,H37Rv,MIC,,,,3.71 µM
C=CCN(CCNCCC(c1ccccc1)c1ccccc1)C1CCCCC1,,,MIC,,,,25 µM
C[C@@H]1CN(c2c(F)c(N)c3c(=O)c(C(=O)O)cn(C4CC4)c3c2F)C[C@H](C)N1,,90-0240 (drug-susceptible),MIC,,,,0.1 µg/mL
CC(=O)C(N=Nc1ccc(S(=O)(=O)Nc2nncs2)cc1)C(=O)Nc1ccccc1C,,H37Rv,MIC bound,,,resazurin,>6.25 µg/mL
C[C@H](c1ccccc1)N1C/C(=C/c2ccc(Cl)cc2)[C@]2(ON=C(c3ccc(Cl)cc3)O2)C2(C1)ON=C(c1ccc(Cl)cc1)[C@H]2c1ccc(Cl)cc1,,H37Rv,MIC,,,,4.14 µM
COc1ccc(CNCCNC(c2ccccc2)c2ccccc2)c(OC)c1,,,MIC,,,,50 µM
COc1cc(/C=C2\N=C(c3ccccc3)OC2=O)cc(OC)c1OC,,H37Rv,MIC bound,,,BACTEC,>12.5 µg/mL
COc1ccc(O)c(C(=O)/C=C/c2ccco2)c1,,,EC50,,,,>12.5 µg/mL
CC1N=C(N)NC(c2ccccc2)=C1C(=O)Nc1ccc(S(=O)(=O)c2ccc(NC(=O)C3=C(c4ccccc4)NC(N)=NC3C)cc2)cc1,,INH resistant,MIC,,,,1.56 µM
O=C1C(=O)N(C23CC4CC(CC(C4)C2)C3)C(=S)N1c1ccccc1,,H37Rv,MIC bound,,,BACTEC,>12.5 µg/mL
O=c1[nH]c2ccc(Cl)cc2c(O)c1N=Nc1ccccc1[N+](=O)[O-],,H37Rv,MIC,,,resazurin,<6.25 µg/mL

For reference, 5 entries again:

compound | dose | strain | endpoint | changes | cell line | method | result
COc1ccc(CNCCNCC(c2ccccc2)c2ccccc2)c(OC)c1 |  |  | MIC |  |  |  | 25 µM
CSC(=S)NN |  | H37Rv | MIC bound |  |  | BACTEC | ≤128 µg/mL
CO[C@H]1/C=C/O[C@@]2(C)Oc3c(C)c(O)c4c(O)c(c(/C=N/N5CCN(C)CC5)c(O)c4c3C2=O)NC(=O)/C(C)=C\C=C\[C@H](C)[C@H](O)[C@@H](C)[C@@H](O)[C@@H](C)[C@H](OC(C)=O)[C@@H]1C |  | TN1916 | MIC |  |  |  | >32 µg/mL
CC(C)(C)OCOC(=O)c1cnccn1 |  | KK11-20 | MBC |  |  |  | 25 µg/mL
COc1cc(/C=C2\N=C(c3ccccc3)OC2=O)cc(OC)c1OC |  | H37Rv | MIC bound |  |  | BACTEC | >12.5 µg/mL